PubChem BioAssay AID1259414, Drosophila RNAi Screening Center | 2018

- Purpose: 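Fly genes that alter Wolbachia amount inside host cells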 (primary screen)
- System: Drosophila JW18 cells infected with Wolbachia
- Knock-down reagent: long dsRNA against Drosophila genes, 0.25 µg dsRNA per well of a 384-well plate
- Time to read-out: 5 days
- Conditions: cells persistently infected with Wolbachia before knock-down; no added drug
- Detection: 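Automated imaging of bacterial rRNA staining divided by host cell count, reported as plate-normalised robust z-score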
- Reading the numbers: Wolbachia per cell robust z: higher = more Wolbachia per host cell than the plate typical
- Call rule: 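Hit when robust z is 1.5 or more, or -1.5 or less, in at least two of three replicates; excludes dsRNAs with several or no targets, genes not expressed in JW18 and well A1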
The screen tested about 24,000 reagents; this is an unselected part of those that have a named target and a result. Over the whole deposit, about 1,210 (5%) were called active. 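Inactive calls also include excluded dsRNAs with several or no targets, genes unexpressed in JW18, and well A1, regardless of score.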 A plus sign joins genes that one reagent is predicted to hit.

CG7084 [SID104195986] → Wolbachia per cell robust z, rep 1: 0.189; Wolbachia per cell robust z, rep 2: -10.3; Wolbachia per cell robust z, rep 3: 1.32; outcome: inactive
CG18598 [SID104195148] → Wolbachia per cell robust z, rep 1: 0.281; Wolbachia per cell robust z, rep 2: -3.94; Wolbachia per cell robust z, rep 3: -0.292; outcome: inactive
CG8840 [SID104180505] → Wolbachia per cell robust z, rep 1: -1.31; Wolbachia per cell robust z, rep 2: -0.893; Wolbachia per cell robust z, rep 3: 1.77; outcome: inactive
Plekhm1 [SID104184319] → Wolbachia per cell robust z, rep 1: 0.0719; Wolbachia per cell robust z, rep 2: -0.998; Wolbachia per cell robust z, rep 3: -0.134; outcome: inactive
Ir94g [SID104195023] → Wolbachia per cell robust z, rep 1: -3.75; Wolbachia per cell robust z, rep 2: -0.8; Wolbachia per cell robust z, rep 3: -5.12; outcome: inactive
Ir94g [SID104206338] → Wolbachia per cell robust z, rep 1: -0.0523; Wolbachia per cell robust z, rep 2: 0.0254; Wolbachia per cell robust z, rep 3: 0.894; outcome: inactive
LSm3 [SID104195712] → Wolbachia per cell robust z, rep 1: -0.0321; Wolbachia per cell robust z, rep 2: 0.249; Wolbachia per cell robust z, rep 3: -6.56; outcome: inactive
CG42307 + mus312 [SID104190800] → Wolbachia per cell robust z, rep 1: -0.0787; Wolbachia per cell robust z, rep 2: -0.0133; Wolbachia per cell robust z, rep 3: 1.05; outcome: inactive
CG32647 [SID104199482] → Wolbachia per cell robust z, rep 1: 0.589; Wolbachia per cell robust z, rep 2: 0.743; Wolbachia per cell robust z, rep 3: -2.8; outcome: inactive
CG32647 [SID104199670] → Wolbachia per cell robust z, rep 1: 0.865; Wolbachia per cell robust z, rep 2: 0.124; Wolbachia per cell robust z, rep 3: -1.47; outcome: inactive
CG13117 [SID104182007] → Wolbachia per cell robust z, rep 1: -0.0521; Wolbachia per cell robust z, rep 2: 0.653; Wolbachia per cell robust z, rep 3: -0.561; outcome: inactive
CG13117 [SID104205527] → Wolbachia per cell robust z, rep 1: -7.14; Wolbachia per cell robust z, rep 2: 0.457; Wolbachia per cell robust z, rep 3: -0.401; outcome: inactive
CG18467 [SID104186550] → Wolbachia per cell robust z, rep 1: -0.108; Wolbachia per cell robust z, rep 2: -1.35; Wolbachia per cell robust z, rep 3: -2.78; outcome: inactive

Individual results from the entries so far.
For “Wolbachia per cell robust z, rep 3”, LSm3 [SID104195712] shows -6.56
For “outcome”, Ir94g [SID104206338] has inactive
For “outcome”, CG13117 [SID104205527] reads inactive
Under “Wolbachia per cell robust z, rep 3”, CG18467 [SID104186550] has -2.78

The results go on:
CG13748 [SID104186211] → Wolbachia per cell robust z, rep 1: -5.19; Wolbachia per cell robust z, rep 2: -1.53; Wolbachia per cell robust z, rep 3: -1.51; outcome: inactive
CG31681 [SID104179899] → Wolbachia per cell robust z, rep 1: 0.218; Wolbachia per cell robust z, rep 2: 0.475; Wolbachia per cell robust z, rep 3: 0.352; outcome: inactive
CG31681 [SID104204437] → Wolbachia per cell robust z, rep 1: -0.488; Wolbachia per cell robust z, rep 2: -0.328; Wolbachia per cell robust z, rep 3: -0.568; outcome: inactive
CG10841 [SID104194063] → Wolbachia per cell robust z, rep 1: 0.937; Wolbachia per cell robust z, rep 2: 0.495; Wolbachia per cell robust z, rep 3: -1.59; outcome: inactive
CG10841 [SID104206686] → Wolbachia per cell robust z, rep 1: -0.731; Wolbachia per cell robust z, rep 2: -1.04; Wolbachia per cell robust z, rep 3: -1.47; outcome: inactive
CG6984 [SID104186805] → Wolbachia per cell robust z, rep 1: -0.848; Wolbachia per cell robust z, rep 2: -1.03; Wolbachia per cell robust z, rep 3: 0.665; outcome: inactive
Mur29B [SID104180810] → Wolbachia per cell robust z, rep 1: 0.377; Wolbachia per cell robust z, rep 2: 0.469; Wolbachia per cell robust z, rep 3: 0.428; outcome: inactive
Mur29B [SID104182168] → Wolbachia per cell robust z, rep 1: -0.742; Wolbachia per cell robust z, rep 2: -1.86; Wolbachia per cell robust z, rep 3: -1.61; outcome: inactive
Prosalpha3 [SID104184436] → Wolbachia per cell robust z, rep 1: 2.03; Wolbachia per cell robust z, rep 2: 1.76; Wolbachia per cell robust z, rep 3: 2; outcome: active
Amt [SID104195847] → Wolbachia per cell robust z, rep 1: 0.707; Wolbachia per cell robust z, rep 2: 0.576; Wolbachia per cell robust z, rep 3: 1.47; outcome: inactive
Amt [SID104206514] → Wolbachia per cell robust z, rep 1: -1.5; Wolbachia per cell robust z, rep 2: -1.56; Wolbachia per cell robust z, rep 3: 2.2; outcome: inactive
